Results of unrelated studies side by side (data: NIAID ChemDB).

Common to all: tests in culture; species: HIV-1; read by: syncytia; endpoint: EC50

ECn is the concentration giving n% inhibition of infection, replication or growth. Lines come from different laboratories, so protocols vary. Blank or dashed fields: not listed here.

SMILES	mutations	strain or isolate	cell line	value
Cc1ccccc1C(C(N)=O)S(=O)c1cccc[n+]1[O-]		IIIB	CEM	>100 µg/mL
CCCCCCCCCC[N+](C)(C)CCCNCc1c(O)cc2c(c1O)-c1cc(ccc1O)[C@H]1NC(=O)[C@@H]3NC(=O)C4NC(=O)[C@@H](Cc5ccc(c(Cl)c5)Oc5cc3cc(c5O)Oc3ccc(cc3Cl)[C@@H](O)[C@H](NC1=O)C(=O)N[C@@H]2C(=O)O)NC(=O)[C@H](N)c1ccc(O)c(c1)Oc1cc(O)cc4c1		MN	CEM	6.5 µM
CC1=C[C@@H]([C@H]2Oc3cc4c(c5c3[C@H](CC5)[C@@H]2C)CC[C@H]2C(C)(C)O[C@@H]3CC(=O)O[C@@]32C4)OC1=O		IIIB	C8166	~24 µg/mL
O=C(CCCCCCCCCCC(=O)Nc1cc(S(=O)(=O)O)c2cccc(S(=O)(=O)O)c2c1)Nc1cc(S(=O)(=O)O)c2cccc(S(=O)(=O)O)c2c1		IIIB	MOLT-4/HIV-1(IIIB) + MOLT-4	92.5 µM
CC1=C(C(=O)Nc2ccc(Cl)c(C(=O)OCC3CCC3)c2)SCCO1	RT-V106A	Nevirapine-resistant (RT V106A)	CEM	4 µg/mL
CN[C@H](CC(C)C)C(=O)N[C@H]1C(=O)N[C@@H](CC(N)=O)C(=O)N[C@H]2C(=O)N[C@H]3C(=O)N[C@H](C(=O)N[C@H](C(=O)O)c4cc(O)cc(O)c4-c4cc3ccc4O)[C@H](O)c3ccc(c(Cl)c3)Oc3cc2cc(c3O[C@@H]2O[C@H](CO)[C@@H](O)[C@H](O)[C@H]2O[C@H]2C[C@](C)(N)[C@H](O)[C@H](C)O2)Oc2ccc(cc2Cl)[C@H]1O			CEM	12 µM
Cc1cccc(C)c1NC(=O)c1ccc([N+](=O)[O-])cc1		IIIB	CEM	>29.3 µM
[O-][n+]1ccccc1SCc1ccccc1		IIIB	CEM	≥100 µg/mL
CCC(=O)Oc1ccc(NC(=O)C2=C(C)OCCS2)cc1C(=O)OC(C)C	RT-L100I	TIBO-resistant (RT L100I)	CEM	>10 µg/mL
Cc1occc1C(=S)Nc1ccc(Cl)c(/C=N/OC(C)(C)C)c1		IIIB	CEM	0.142 µM
CN1CCN(C(=O)c2ccc3c(=O)c4ccccc4[nH]c3c2)CC1	RT-E138K	TSAO-resistant (RT E138K)	CEM	0.5 µg/mL
Nc1nc(=O)n([C@H]2CC[C@@H](CO)O2)cc1F		RF	MT-4	0.025 µM
CC(C)=CCOc1cc(NC(=S)c2ccoc2C)ccc1Cl	RT-V179D	IIIB	CEM	0.017 µM
Nc1ccc2c(c1)C(=O)N(C13CC4CC(CC(C4)C1)C3)C2=O		IIIB	CEM	>16 µM
C=CCC(c1cc(C)ccc1C)S(=O)(=O)c1cccc[n+]1[O-]		IIIB	CEM	10 µg/mL
CC1=C(C(=O)Nc2cc(C(=O)OC(C)C)c(C)cc2F)SCCO1	RT-Y181C	PYR-resistant (RT Y181C)	CEM	>10 µg/mL
O=C(O)c1ccc(CS(=O)(=O)c2cccc[n+]2[O-])cc1		IIIB	CEM	>100 µg/mL
O=S(=O)(O)OC1C(OS(=O)(=O)O)C(OS(=O)(=O)O)C(OS(=O)(=O)O)C(OS(=O)(=O)O)C1OS(=O)(=O)O		IIIB	SUP-T1 + H9 + Sup-T1	>1000 µg/mL
Cc1ccc(CS(=O)c2cccc[n+]2[O-])cc1		IIIB	CEM	>4 µg/mL
CC1=C(C(=O)Nc2ccc(Cl)c(C(=O)OC(C)C)c2)SCCO1	RT-L100I	TIBO-resistant (RT L100I)	CEM	>40 µg/mL
CC(=O)Nc1cc(S(=O)(=O)O)cc2cc(S(=O)(=O)O)cc(O)c12		IIIB	MOLT-4/HIV-1(IIIB) + MOLT-4	>100 µM
COc1ccc(CS(=O)c2cccc[n+]2[O-])cc1		IIIB	CEM	>0.8 µg/mL
CC(=O)NC1C(O)OC(CO)C(O)C1OC1OC(C(=O)[O-])C(OC2OC(CO)C(O)C(OC3OC(C(=O)[O-])C(O)C(O)C3O)C2NC(C)=O)C(O)C1O.[Na+].[Na+]		IIIB	SUP-T1 + H9 + Sup-T1	>1000 µg/mL
Cc1ccc(C)c(CSc2c(O)ccc[n+]2[O-])c1		IIIB	CEM	>20 µg/mL
CCOC(=O)c1cc(NC(=O)C2=C(C)OCCS2)ccc1Cl	RT-Y181C	PYR-resistant (RT Y181C)	CEM	>10 µg/mL
CC(=O)NC1[C@H](COC[C@@H]2C(CO)O[C@@H](COC[C@@H]3C(CO)O[C@@H](O)C(NC(C)=O)[C@@H]3O)C(NC(C)=O)[C@@H]2O)OC(CO)[C@@H](O)[C@H]1O		IIIB	SUP-T1 + H9 + Sup-T1	>1000 µg/mL
CCCCCCCCCCCC(c1cc(C)ccc1C)S(=O)(=O)c1cccc[n+]1[O-]		IIIB	CEM	>20 µg/mL
Cc1cccc(C)c1N1C(=O)c2ccc(N)cc2C1=O		IIIB	CEM	>30 µM
CC(c1ccc(F)cc1)S(=O)c1cccc[n+]1[O-]		IIIB	CEM	>0.16 µg/mL
CC1=C(C(=O)Nc2cc(Cl)cc(C(=O)OC(C)C)c2)SCCO1	RT-E138K	TSAO-resistant (RT E138K)	CEM	5.5 µg/mL
Cc1ccc(C)c(CSc2ncccc2O)c1		IIIB	CEM	0.22 µg/mL
CC1=C(C(=O)Nc2ccc(C)c(C(=O)OC(C)C)c2)SCCO1	RT-E138K	TSAO-resistant (RT E138K)	CEM	8.5 µg/mL
Clc1ccc(CSc2ccccn2)cc1		IIIB	CEM	≥1 µg/mL
CC(C)OC(=O)c1cc(NC(=S)OC(C)C)ccc1Cl		IIIB	CBMC	0.38 µM
Cc1cccc(C(C#N)S(=O)c2cccc[n+]2[O-])c1		IIIB	CEM	>0.16 µg/mL
O=C1c2ccc(O)cc2C(=O)N1C12CC3CC(CC(C3)C1)C2		IIIB	CEM	>13.3 µM

The last 3 rows once more:

SMILES	mutations	strain or isolate	cell line	value
CC(C)OC(=O)c1cc(NC(=S)OC(C)C)ccc1Cl		IIIB	CBMC	0.38 µM
Cc1cccc(C(C#N)S(=O)c2cccc[n+]2[O-])c1		IIIB	CEM	>0.16 µg/mL
O=C1c2ccc(O)cc2C(=O)N1C12CC3CC(CC(C3)C1)C2		IIIB	CEM	>13.3 µM